Pooled drug test results. Numbers come from NIAID ChemDB, via PubChem.

Common to all: growth or infection tests; organism: HIV-1

An empty or dashed field is not shown.

compound	mutations	endpoint	cells	read by	strain	value
CSCCC(NS(=O)(=O)c1ccc(Cl)cc1)c1nnc(SCc2ccc(F)cc2)o1	-	EC50	MT-4	-	IIIB	>13.65 µg/mL
Cc1occc1C(=S)Nc1ccc(Cl)c(/C=N/N(C)C)c1	RT-Y188L	EC50	CEM	syncytia	HEPT-resistant (RT Y188L)	<2 µg/mL
NC(N)=NCCC[C@H](N)C(=O)NC[C@@H]1OC(O[C@H]2[C@@H](O)[C@H](O[C@@H]3[C@@H](O)[C@H](NC(=O)[C@@H](N)CCCN=C(N)N)C[C@H](NC(=O)[C@@H](N)CCCN=C(N)N)[C@H]3O[C@H]3O[C@H](CNC(=O)[C@@H](N)CCCN=C(N)N)[C@@H](O)[C@H](O)[C@H]3NC(=O)[C@@H](N)CCCN=C(N)N)O[C@@H]2CO)[C@H](NC(=O)[C@@H](N)CCCN=C(N)N)[C@@H](O)[C@@H]1O	-	EC50	MT-2	p24 / RT activity	B (AZT/3TC-resistant)	3.6 µM
Cc1ccc(S(=O)(=O)NC(Cc2ccccc2)c2nnc(SCc3ccc(Br)cc3)o2)cc1	-	EC50	MT-4	-	IIIB	>82.1 µg/mL
Cc1cc(C)cc(S(=O)(=O)c2c(C(=O)NS(=O)(=O)C(F)(F)F)[nH]c3ccc(Cl)cc23)c1	K103N	EC50	MT-4	MTT	-	21.56 µM
C#CCNC(=O)CSc1cnc(Nc2ccc(C#N)cc2)nc1Oc1c(C)cc(C#N)cc1C	E138K	EC50	MT-4	MTT	-	0.0071 µM
CNC(=O)c1cc(F)ccc1CNC(=O)c1nc2n(c(=O)c1O)CCN(C)C2(C)C	-	EC50	MT-4	p24	-	<1 µM
Cc1cn([C@@H]2O[C@H](CN3CCNCC3)C3(OS(=O)(=O)C=C3N)[C@H]2O[Si](C)(C)C(C)(C)C)c(=O)n(C)c1=O	-	EC50	CEM + CEM/0	-	-	≥50 µM
Nc1nc(NC2CC2)c2ncn([C@H]3CO[C@@H](CO)O3)c2n1	-	EC50	MT-2	RT activity	IIIB	0.18 µM
CN(C)CCNC(=O)c1ccc(C2=NN3C(C(=O)c4ccc(F)cc4)Oc4ccccc4C3C2)cc1	-	EC50	MT-4	GFP / reporter gene	LAI	1–10 µM
C=C[C@@]1(CO)C=C[C@H](n2cc(C)c(=O)[nH]c2=O)O1	-	EC50	MT-2	cytopathic effect	IIIB	>100 µM
CC(C)[C@H](NC(=O)[C@H](Cc1ccccc1)NC(=O)[C@H](O)[C@@H](O)[C@H](O)[C@H](O)CO)C(=O)N[C@@H](Cc1ccccc1)[C@@H](O)[C@H](O)[C@H](Cc1ccccc1)NC(=O)[C@@H](NC(=O)[C@H](Cc1ccccc1)NC(=O)[C@H](O)[C@@H](O)[C@H](O)[C@H](O)CO)C(C)C	-	EC50	PBLC	p24	D34	>25 µM
C=C1CN(S(=O)(=O)c2ccc(C)cc2)CCCN(CC2CC=CCC2)CCCN(S(=O)(=O)c2ccc(C)cc2)C1	-	EC50	PBMC	p24	BaL	0.99 µM
CSCC1NCCn2c1nc(C(=O)NCc1ccc(F)cc1)c(O)c2=O	-	EC95	MT-4	p24	-	<1 µM
Cc1ccc(-c2ccc3c(c2)C=C(C(=O)Nc2ccc(C[N+](C)(C)C4CCOCC4)cc2)CCC3)cc1	-	EC50	PBMC	p24	CM7 CLADE C	<1 µM
CN1N=C(N)c2cn([C@@H]3O[C@H](COP(=O)(O)O)[C@@H](O)[C@H]3O)c3ncnc1c23	-	EC50	-	-	-	0.01 µM
COc1ncc(C#C[Si](C)(C)C)c(OC)n1	-	EC50	PBMC	-	LAI	1.2 µM
O=C(NC1CCC1)c1ccc(C2=NN3C(C(=O)c4ccc(F)cc4)Oc4ccccc4C3C2)cc1	-	EC50	MT-4	GFP / reporter gene	LAI	<1 µM
Cc1cc(C)cc(S(=O)(=O)c2c(C(=O)NS(=O)(=O)c3ccc(F)cc3)[nH]c3ccc(Cl)cc23)c1	E138K	EC50	MT-4	MTT	-	4.04 µM
CC(C)[C@H](NC(=O)[C@H](Cc1cccc2ccccc12)CS(=O)(=O)C(C)(C)C)C(=O)N[C@@H](Cc1ccc(O)cc1)[C@@H](O)[C@H](O)[C@H](Cc1ccc(O)cc1)NC(=O)[C@@H](NC(=O)[C@H](Cc1cccc2ccccc12)CS(=O)(=O)C(C)(C)C)C(C)C	-	EC50	PBLC	p24	D34	0.3 µM
CCCS(=O)(=O)NC(=O)c1[nH]c2ccc(Cl)cc2c1S(=O)(=O)c1cc(C)cc(C)c1	-	EC50	MT-4	MTT	IIIB	0.36 µM
Cc1cc(C#N)cc(C)c1Oc1nc(Nc2ccc(C#N)cc2)ncc1SCC(=O)NCC1CCCO1	Y181C	EC50	MT-4	MTT	-	0.0489 µM
CC(C)[C@H](NC(=O)[C@H](Cc1cccc2ccccc12)CS(=O)(=O)C(C)(C)C)C(=O)N[C@@H](Cc1ccccc1)[C@H](O)[C@@H](O)[C@H](Cc1ccccc1)NC(=O)[C@@H](NC(=O)[C@H](Cc1cccc2ccccc12)CS(=O)(=O)C(C)(C)C)C(C)C	-	EC50	PBLC	p24	D34	0.02 µM
Cc1cc(C)cc(S(=O)(=O)c2c(C(=O)NS(=O)(=O)c3ccc(F)cc3F)[nH]c3ccc(Cl)cc23)c1	-	EC50	MT-4	MTT	RES056	>167 µM
Cc1cc(C#N)cc(C)c1Oc1nc(Nc2ccc(C#N)cc2)ncc1SCC(N)=O	Y188L	EC50	MT-4	MTT	-	0.08 µM
Cc1ccc(S(=O)(=O)NC(C)c2nnc(SCc3ccc(Br)cc3)o2)cc1	-	EC50	MT-4	-	IIIB	>75.33 µg/mL
O=C(NC1CCCC1)c1ccc(C2=NN3C(C(=O)c4ccc(C(F)(F)F)cc4)Oc4ccccc4C3C2)cc1	-	EC50	MT-4	GFP / reporter gene	LAI	<1 µM
C#C[C@@]1(CO)C=C[C@H](n2cc(C)c(=O)[nH]c2=O)O1	-	EC50	MT-2	cytopathic effect	IIIB	0.2 µM
Cc1nc(CN2CCn3c(nc(C(=O)NCc4ccc(F)cc4)c(O)c3=O)C2(C)C)cs1	-	EC95	MT-4	p24	-	<1 µM
O=C(c1ccc(F)cc1)C1Oc2ccccc2C2CC(c3ccc(C(=O)N4CCCCCC4)cc3)=NN12	-	EC50	MT-4	GFP / reporter gene	LAI	<1 µM
COCCNC(=O)CSc1cnc(Nc2ccc(C#N)cc2)nc1Oc1c(C)cc(C#N)cc1C	L100I	EC50	MT-4	MTT	-	0.018 µM
CCCCCCCCCC[N+](C)(C)CCCNCc1c(O)cc2c(c1O)-c1cc(ccc1O)[C@H]1NC(=O)[C@@H]3NC(=O)C4NC(=O)[C@@H](Cc5ccc(c(Cl)c5)Oc5cc3cc(c5O)Oc3ccc(cc3Cl)[C@@H](O)[C@H](NC1=O)C(=O)N[C@@H]2C(=O)O)NC(=O)[C@H](N)c1ccc(O)c(c1)Oc1cc(O)cc4c1	RT-K103N	EC50	CEM	syncytia	-	6 µM
Cc1cc(C#N)cc(C)c1Oc1nc(Nc2ccc(C#N)cc2)ncc1SCC(=O)NC1CCN(C(=O)OC(C)(C)C)CC1	K103N	EC50	MT-4	MTT	-	0.01 µM
Cn1cc(NC(=O)Nc2cc(C(=O)Nc3cc(C(=O)Nc4ccc(P(=O)(O)O)c5cc(P(=O)(O)O)ccc45)n(C)c3)n(C)c2)cc1C(=O)Nc1cc(C(=O)Nc2ccc(P(=O)(O)O)c3cc(P(=O)(O)O)ccc23)n(C)c1	-	EC50	CEM + CEM-SS	cytopathic effect / XTT	RF	1.7 µM
COc1ccc(CNC(=O)c2ccc(C3=NN4C(C(=O)c5ccc(Br)cc5)Oc5ccccc5C4C3)cc2)cc1	-	EC50	MT-4	GFP / reporter gene	LAI	<1 µM
C#C[C@@]1(COP(=O)(O)OP(=O)(O)OP(=O)(O)O)C=C[C@H](n2cc(C)c(=O)[nH]c2=O)O1	-	EC50	TZM-bl	luciferase	NL4-3	0.45 µM
Cc1cc(C#N)cc(C)c1Oc1nc(Nc2ccc(C#N)cc2)ncc1SCC(=O)Nc1ccc(S(C)(=O)=O)cc1	RES056	EC50	MT-4	MTT	-	0.5926 µM
Cc1ccc(S(=O)(=O)NC(C)c2nnc(SCc3ccc(F)cc3)o2)cc1	-	EC50	MT-4	-	IIIB	>70.8 µg/mL
Cc1cn([C@@H]2O[C@H](COC(=O)c3ccccc3)C3(OS(=O)(=O)C=C3N)[C@H]2O[Si](C)(C)C(C)(C)C)c(=O)n(C)c1=O	-	EC50	MT-4	-	-	>15 µM
Cn1cc(N)cc1C(=O)Nc1cc(C(=O)Nc2ccc(S(=O)(=O)O)c3cc(S(=O)(=O)O)ccc23)n(C)c1	-	EC50	CEM + CEM-SS	cytopathic effect / XTT	RF	34.9 µM
CCC(C)[C@H](NC(=O)[C@H](Cc1cccc2ccccc12)CS(=O)(=O)C(C)(C)C)C(=O)N[C@@H](Cc1ccccc1)[C@@H](O)[C@H](O)[C@H](Cc1ccccc1)NC(=O)[C@@H](NC(=O)[C@H](Cc1cccc2ccccc12)CS(=O)(=O)C(C)(C)C)C(C)CC	-	EC50	PBLC	p24	D34	0.01 µM
CCN1C[C@H](C)n2c(c(O)c3c(=O)n(Cc4ccc(F)c(Cl)c4)nc(C(=O)NC)c32)C1=O	E138K	EC50	PM1	RT activity	NL4-3	0.0012 µM
CC(NS(=O)(=O)c1ccc(Cl)cc1)c1nnc(SCc2ccccc2)o1	-	EC50	MT-4	-	IIIB	>65.63 µg/mL
CN(C)S(=O)(=O)N(C)C1COCCn2c1nc(C(=O)NCc1ccc(F)cc1)c(O)c2=O	-	EC95	MT-4	p24	-	<1 µM
CSCCC(NS(=O)(=O)c1ccc(Cl)cc1)c1nnc(SCc2ccc(Cl)cc2)o1	-	EC50	MT-4	-	IIIB	>11.88 µg/mL
C=C1O[C@@H](n2cc(C)c(=O)n(C)c2=O)[C@H](O[Si](C)(C)C(C)(C)C)[C@]12OS(=O)(=O)C=C2N	-	EC50	MT-4	-	-	3.49 ± 1.57 µM
CC(c1nnc(SCc2ccc(Br)cc2)o1)N(Cc1ccc(Br)cc1)S(=O)(=O)c1ccc(Cl)cc1	-	EC50	MT-4	-	IIIB	>125 µg/mL
C=CCNC(=O)CSc1cnc(Nc2ccc(C#N)cc2)nc1Oc1c(C)cc(C#N)cc1C	E138K	EC50	MT-4	MTT	-	0.0113 µM
Cc1ccc(S(=O)(=O)NC(Cc2ccccc2)c2nnc(SCc3ccc(F)cc3)o2)cc1	-	EC50	MT-4	-	IIIB	>90.83 µg/mL
CC(C)[C@H](NC(=O)[C@H](Cc1ccncc1)CS(=O)(=O)C(C)(C)C)C(=O)N[C@@H](Cc1ccccc1)[C@@H](O)[C@H](O)[C@H](Cc1ccccc1)NC(=O)[C@@H](NC(=O)[C@H](Cc1ccncc1)CS(=O)(=O)C(C)(C)C)C(C)C	-	EC50	PBLC	p24	D34	25 µM
CN(C)CCN(Cc1ccccc1)C(=O)c1ccc(C2=NN3C(C(=O)c4ccc(F)cc4)Oc4ccccc4C3C2)cc1	-	EC50	MT-4	GFP / reporter gene	LAI	1–10 µM
Cc1cc(C#N)cc(C)c1Oc1nc(Nc2ccc(C#N)cc2)ncc1SCC(=O)NCc1ccc(O)cc1	-	EC50	MT-4	MTT	IIIB	0.0078 µM
COc1cc(-c2ccc(N=Nc3ccc4c(S(=O)(=O)O)cc(S(=O)(=O)O)c(N)c4c3O)c(OC)c2)ccc1N=Nc1ccc2c(S(=O)(=O)O)cc(S(=O)(=O)O)c(N)c2c1O	-	EC50	CEM + CEM-SS	cytopathic effect / XTT	IIIB	0.6 µM
C#Cc1cnc(C(C)=O)nc1C(C)=O	-	EC50	PBMC	-	LAI	>100 µM
Cc1cc(C#N)cc(C)c1Oc1nc(Nc2ccc(C#N)cc2)ncc1SCC(=O)NCCN1CCN(C(=O)OC(C)(C)C)CC1	RES056	EC50	MT-4	MTT	-	0.4535 µM
C#Cc1c[nH]c(=O)[nH]c1=O	-	EC50	PBMC	-	LAI	37.7 µM
Cc1cc(C)cc(S(=O)(=O)c2c(C(=O)NS(=O)(=O)c3ccccc3)[nH]c3ccc(Cl)cc23)c1	Y188L	EC50	MT-4	MTT	-	>131 µM
COc1ccc(NC(=O)c2ccc(C3=NN4C(C(=O)c5ccc(F)cc5)Oc5ccccc5C4C3)cc2)cc1	-	EC50	MT-4	GFP / reporter gene	LAI	1–10 µM
CN(C)C(=O)C(=O)N(C)C1CN(CC2CC2)CCn2c1nc(C(=O)NCc1ccc(F)cc1)c(O)c2=O	-	EC95	MT-4	p24	-	<1 µM
Cc1cn([C@@H]2O[C@H](COC(=O)C(C)C)C3(OS(=O)(=O)C=C3N)[C@H]2O[Si](C)(C)C(C)(C)C)c(=O)n(C)c1=O	-	EC50	CEM + CEM/0	-	-	≥10 µM
O=C(NCc1ccc(F)cc1)c1nc2n(c(=O)c1O)CCN(Cc1ccccc1)C2	-	EC95	MT-4	p24	-	<50 µM
CC(C)[C@H](NC(=O)[C@H](Cc1cccc2ccccc12)CS(=O)(=O)C(C)(C)C)C(=O)N[C@@H](Cc1ccccc1)[C@@H](O)[C@@H](N=[N+]=[N-])[C@H](Cc1ccccc1)NC(=O)[C@@H](NC(=O)[C@H](Cc1cccc2ccccc12)CS(=O)(=O)C(C)(C)C)C(C)C	-	EC50	PBLC	p24	D34	100 µM

Repeating the final 6 entries:

compound	mutations	endpoint	cells	read by	strain	value
Cc1cc(C)cc(S(=O)(=O)c2c(C(=O)NS(=O)(=O)c3ccccc3)[nH]c3ccc(Cl)cc23)c1	Y188L	EC50	MT-4	MTT	-	>131 µM
COc1ccc(NC(=O)c2ccc(C3=NN4C(C(=O)c5ccc(F)cc5)Oc5ccccc5C4C3)cc2)cc1	-	EC50	MT-4	GFP / reporter gene	LAI	1–10 µM
CN(C)C(=O)C(=O)N(C)C1CN(CC2CC2)CCn2c1nc(C(=O)NCc1ccc(F)cc1)c(O)c2=O	-	EC95	MT-4	p24	-	<1 µM
Cc1cn([C@@H]2O[C@H](COC(=O)C(C)C)C3(OS(=O)(=O)C=C3N)[C@H]2O[Si](C)(C)C(C)(C)C)c(=O)n(C)c1=O	-	EC50	CEM + CEM/0	-	-	≥10 µM
O=C(NCc1ccc(F)cc1)c1nc2n(c(=O)c1O)CCN(Cc1ccccc1)C2	-	EC95	MT-4	p24	-	<50 µM
CC(C)[C@H](NC(=O)[C@H](Cc1cccc2ccccc12)CS(=O)(=O)C(C)(C)C)C(=O)N[C@@H](Cc1ccccc1)[C@@H](O)[C@@H](N=[N+]=[N-])[C@H](Cc1ccccc1)NC(=O)[C@@H](NC(=O)[C@H](Cc1cccc2ccccc12)CS(=O)(=O)C(C)(C)C)C(C)C	-	EC50	PBLC	p24	D34	100 µM

ECn: concentration that inhibits the pathogen or its effect by n%. Conditions beyond the fields shown may differ between rows. Two numbers with a dash give a range or band.